# Results as given in ChEMBL document CHEMBL1125681, “Specific anti-HIV-1 "acyclonucleosides" which cannot be phosphorylated: synthesis of some deoxy analogues of 1-[(2-hydroxyethoxy)methyl]-6-(phenylthio)thymine” (J Med Chem, 1991).
# Test: CC50/EC50 ratio expressed as selectivity index(SI)
# Type: functional
# Outline: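 Ratio of two MT-4 values from this work. CC50 is the concentration that reduces the viability of mock-infected MT-4 cells by 50%. EC50 is the concentration giving 50% protection of HIV-1-infected MT-4 cells against virus cytopathic effect. Both are means (± standard deviation or range) of at least two separate experiments.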
compound,measurement,value
CCc1c(Sc2ccccc2)n(COCCO)c(=O)[nH]c1=O,Ratio,3300
